## PSTVd loop 6 mutant pool in Nicotiana benthamiana

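Three N. benthamiana plants were inoculated with the whole mutant pool. Samples came from the inoculated region at 5 days, the leaf margin at 10 and upper systemic leaves at 12.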

The pool varies loop 6 of the PSTVd intermediate strain in the pattern UNNNCGNNNG; wild type is UGACCGCGAG (upper and lower strand joined, each 5' to 3', the first 5 letters being the upper strand, closing pairs included).

Numbers give reads per thousand; 0 = not seen among the reads, higher = more abundant.
Each site shows the three plants.
"Pool" is the share in the plasmid pool used as inoculum, on the same scale.
The inoculated region was read from the minus strand, the other sites from the plus strand.

| # | sequence | pool | inoculated region | leaf margin | systemic leaves |
|---|---|---|---|---|---|
| 1 | UACGCGGAUG | 0.209 | 0.122 0.0719 0.0369 | 0 0 0 | 0 0 0 |
| 2 | UGUACGAAAG | 0.222 | 0.139 0.0539 0.0738 | 0.0276 0 0.0696 | 0.0359 0.0202 0 |
| 3 | UAAGCGAGCG | 0.183 | 0.0521 0.0539 0.0553 | 0 0 0 | 0 0 0 |
| 4 | UGAUCGCUGG | 0.157 | 0.104 0.0539 0.0553 | 0 0 0.0232 | 0 0 0 |
| 5 | UGACCUGUUG | 0.0131 | 0 0 0 | 0 0 0 | 0 0 0 |
| 6 | UAUCCGGUCG | 0.275 | 0.104 0.0719 0.129 | 0 0 0 | 0 0 0 |
| 7 | UACCCGGUAG | 0.170 | 0.0348 0.0539 0.0922 | 0 0 0.0696 | 0 0 0 |
| 8 | UUUACGGGCG | 0.144 | 0.695 0.701 0.443 | 0.138 0.101 0.0928 | 0 0 0 |
| 9 | UACACGUGGG | 0.118 | 0.0869 0.0898 0.0184 | 0.0276 0 0 | 0 0 0 |
| 10 | UACACGGGCG | 0.157 | 0.591 0.701 0.553 | 0.166 0.0504 0.0232 | 0 0 0 |
| 11 | UCAUCGCGUG | 0.261 | 0.139 0.180 0.0553 | 0 0 0.0232 | 0 0 0 |
| 12 | UGUCCGUAGG | 0.327 | 0.0695 0.216 0.111 | 0 0 0 | 0 0 0 |
| 13 | UUUACGCGAG | 0.105 | 0.139 0.126 0.184 | 0.166 0.177 0.0232 | 0 0.0606 0.0205 |
| 14 | UCUGCGGGUC | 0.0131 | 0 0 0 | 0 0 0 | 0 0 0 |
| 15 | UUAGCGACGG | 0.222 | 0.0695 0.108 0.0553 | 0 0 0.0464 | 0 0 0 |
| 16 | UCAACGAGCG | 0.196 | 0.678 0.413 0.516 | 0.0552 0.101 0.0696 | 0 0 0 |
| 17 | UCGACGUGUG | 0.327 | 0.0521 0.108 0.0369 | 0 0 0 | 0 0 0 |
| 18 | UGACCGGGUG | 0.248 | 0.295 0.251 0.166 | 0.387 0.126 0.0928 | 0.162 0.0202 0.267 |
| 19 | UUGACGUGGG | 0.144 | 0.191 0.0719 0.0738 | 0.0276 0 0 | 0 0 0 |
| 20 | UCAACGGUGG | 0.196 | 0.191 0.0898 0.111 | 0.0276 0 0 | 0 0 0 |
| 21 | UCCUCGGCAG | 0.0915 | 0.156 0.0359 0.0922 | 0.0276 0 0 | 0 0 0 |
| 22 | UUCACGGCGG | 0.275 | 0.122 0.0719 0.0553 | 0.0276 0 0 | 0 0 0 |
| 23 | UACCCGGUGG | 0.118 | 0.0695 0.0719 0.148 | 0 0 0 | 0 0 0 |
| 24 | UGCUCGUUAG | 0.405 | 0.0521 0.0898 0.203 | 0.0276 0 0 | 0 0 0 |
| 25 | UUGUCGUUUG | 0.431 | 0.104 0.0539 0.0738 | 0 0 0.0232 | 0 0 0 |
| 26 | UGAACGAUGG | 0.288 | 0.104 0.144 0.111 | 0.0276 0 0.0232 | 0 0 0 |
| 27 | UGAGCGCUCG | 0.392 | 0.104 0.0180 0.129 | 0.0552 0 0.0232 | 0 0 0 |
| 28 | UUUCCGCGAG | 0.301 | 0.382 0.683 0.553 | 0.138 0.252 23.2 | 0.0539 0.0202 0.328 |
| 29 | UAUGCGAGGG | 0.261 | 0.104 0.0898 0.0369 | 0.0276 0 0.0464 | 0 0 0 |
| 30 | UUAUCGUGGG | 0.196 | 0.139 0.0359 0.0922 | 0 0 0 | 0 0 0 |
| 31 | UAAUCGCUAG | 0.131 | 0.0521 0.108 0.0553 | 0 0 0 | 0 0 0 |
| 32 | UUCACGGACG | 0.340 | 0.643 0.647 0.572 | 0.0276 0.101 0.0696 | 0.0539 0.0202 0 |
| 33 | UAGCCGGCGG | 0.209 | 0.122 0.0180 0.0738 | 0.0828 0.0504 0 | 0 0 0 |
| 34 | UACGCGCUUG | 0.183 | 0.156 0.0719 0.0738 | 0.0276 0 0 | 0 0 0 |
| 35 | UUGUCGUGUG | 0.353 | 0.0869 0.144 0.240 | 0.0276 0 0.0232 | 0 0 0 |
| 36 | UGGUCGGGCG | 0.183 | 0.0348 0.0719 0.0553 | 0 0 0 | 0 0 0 |
| 37 | UCCCCGGUCG | 0.353 | 0.122 0.126 0.129 | 0 0 0.0464 | 0 0 0 |
| 38 | UUAUCGGUUG | 0.431 | 0.122 0.0539 0.0553 | 0 0 0.0464 | 0 0 0 |
| 39 | UACUCGCUAG | 0.118 | 0.104 0.0898 0.111 | 0.0276 0 0 | 0 0 0 |
| 40 | UCAUCGACGG | 0.222 | 0.191 0.126 0.0369 | 0 0 0.0232 | 0 0 0 |
| 41 | UGGACGGAUG | 0.235 | 0.139 0.108 0.166 | 0.0552 0 0 | 0 0 0 |
| 42 | UCUCCGGCAG | 0.183 | 0.139 0.108 0.0553 | 0 0 0 | 0 0 0 |
| 43 | UGUACGGGCG | 0.183 | 0.104 0.0719 0.111 | 0 0 0 | 0 0 0 |
| 44 | UAGACGGGUG | 0.248 | 0.122 0.0719 0.0738 | 0 0 0 | 0 0.0404 0.0410 |
| 45 | UAGGCGUCUG | 0.275 | 0.104 0.0359 0.0738 | 0 0 0 | 0 0 0 |
| 46 | UAGGCGUUAG | 0.405 | 0.0869 0.108 0.0738 | 0 0 0 | 0 0 0 |
| 47 | UUACCGACGG | 0.196 | 0.191 0.180 0.240 | 0 0 0 | 0 0 0 |
| 48 | UUACCGCCAG | 0.144 | 0.817 0.898 0.590 | 0.0828 0.0504 0.0928 | 0 0 0 |
| 49 | UGAUCGUUUG | 0.392 | 0.0695 0.0359 0.0738 | 0 0 0 | 0 0 0 |
| 50 | UCCCCGCCGG | 0.248 | 0.0869 0.0539 0.148 | 0.0276 0 0 | 0 0 0 |
| 51 | UAGGCGCUAG | 0.131 | 0.0521 0.0359 0.0553 | 0 0 0 | 0 0 0 |
| 52 | CGACCGCGAG | 0.0261 | 0.243 0.0180 0.0922 | 0.276 0.504 0.278 | 0.359 0.424 0.615 |
| 53 | UACCCGUCAG | 0.288 | 0.869 0.736 0.350 | 0.110 0.151 0.162 | 0 0 0 |
| 54 | UGGACGGAAG | 0.209 | 0.104 0.0898 0.111 | 0 0 0.0232 | 0 0 0 |
| 55 | UACGCGGGCG | 0.157 | 0.122 0.0898 0.0738 | 0 0 0 | 0 0 0 |
| 56 | UCCUCGGGUG | 0.222 | 0.122 0.0359 0.0738 | 0.0276 0 0 | 0 0 0 |
| 57 | UAGCCGCGCG | 0.209 | 0.782 0.754 0.572 | 0.138 0.0504 0.0232 | 0.0180 0.0202 0 |
| 58 | UUCACGUGCG | 0.340 | 0.139 0.108 0.0553 | 0 0 0 | 0 0 0 |
| 59 | UCAUCGGUGG | 0.183 | 0.0869 0.0539 0.0553 | 0 0 0 | 0 0 0 |
| 60 | UAGACGUCCG | 0.340 | 0.0521 0.0898 0.148 | 0 0 0 | 0 0 0 |
| 61 | UUUCCGGAAC | 0.0131 | 0 0 0 | 0 0 0 | 0 0 0 |
| 62 | UGUUCGUUAG | 0.445 | 0.122 0.108 0.111 | 0.0276 0 0 | 0 0 0 |
| 63 | UGAGCUCGAG | 0.0131 | 0 0 0 | 0 0 0 | 0 0 0 |
| 64 | UCAACGUCGG | 0.118 | 0.0869 0 0.0369 | 0 0 0 | 0 0 0 |
| 65 | UAACCGCCUG | 0.131 | 0.643 0.611 0.516 | 0.0828 0 0 | 0 0 0 |
| 66 | UUGUCGACCG | 0.261 | 0.0869 0.0359 0.111 | 0 0 0 | 0 0 0 |
| 67 | UAUCCGCUAG | 0.0784 | 0.243 0.0898 0.0738 | 0 0 0 | 0 0 0 |
| 68 | UUCGCGCCUG | 0.183 | 0.104 0.0359 0.0922 | 0 0.101 0 | 0 0 0 |
| 69 | UAAACGUACG | 0.248 | 0.660 0.665 0.443 | 0.0828 0.101 0.0232 | 0.0180 0.0202 0 |

Excerpt, the final 3 entries:

UAUCCGCUAG (pool 0.0784): inoculated region 0.243 0.0898 0.0738; leaf margin 0 0 0; systemic leaves 0 0 0.
UUCGCGCCUG (pool 0.183): inoculated region 0.104 0.0359 0.0922; leaf margin 0 0.101 0; systemic leaves 0 0 0.
UAAACGUACG (pool 0.248): inoculated region 0.660 0.665 0.443; leaf margin 0.0828 0.101 0.0232; systemic leaves 0.0180 0.0202 0.

With 36,220-57,551 reads a sample, very low values are single reads.
For reference, wild type rose from 20.7 per thousand in the pool to 195, 198, 203 (inoculated region), 629, 591, 734 (leaf margin) and 942, 870, 868 (systemic leaves).
The authors trace changes outside the varied positions to PCR and sequencing errors or to mutation in the plant; presence does not show that a variant is infectious alone.

Data from the supplement of Wu et al. 2024, doi:10.1371/journal.ppat.1012142.